Measured values from several laboratories, pooled; numbers as filed in NIAID ChemDB.

All rows: enzyme or target tests

Neighbouring rows are from separate reports.

structure	agent	read by	target	changes	measure	strain or isolate	dose	result
CC1(C)N=C(N)N=C(N)N1c1ccc(N)cc1	Toxoplasma gondii		DHFR		IC50	RH		1.44 µM
CC(C)C(=O)N1C[C@H](CN2CCC(c3ccccc3)CC2)[C@@H](c2ccccc2)C1		radiometric	CCR5	CCR5-Y251A	IC50			9.8 µM
S=c1cc[nH]c(=S)[nH]1	Toxoplasma gondii		Uracil phosphoribosyltransferase		Ki	RH		250 µM
CCCCCCCC/C=C/CCCCCCCC(=O)Nc1nnc(NCc2ccc(OC)c(OC)c2)s1	Human cytomegalovirus		Polymerase		IC50			<25 µM
CN(CC(C)(CCN1CCC(N(CCO)C(=O)OCc2ccc([N+](=O)[O-])cc2)CC1)c1ccsc1)S(=O)(=O)c1ccccc1		radiometric	CCR5		IC50			0.002 µM
Nc1nc(N)c2c(ccc3ccc(Cl)cc32)n1	Toxoplasma gondii		DHFR		IC50	RH		0.011 µM
O=c1[nH]cc(Cl)c(=O)[nH]1	Toxoplasma gondii		Uracil phosphoribosyltransferase		IC50	RH		>2000 µM
N#Cc1ccc(C(=O)Nc2nnc(NCc3ccc(Cl)c(Cl)c3)s2)cc1	Human cytomegalovirus		Polymerase		IC50			<25 µM
Nc1nc2c(ncn2[C@H]2CC[C@@H](COP(=O)(O)OP(=O)(O)OP(=O)(O)O)O2)c(=O)[nH]1	HIV	nucleotide incorporation / radiometric	Reverse transcriptase	RT-N137E	fold resistance			1.66
O=c1[nH]cc(Br)c(=O)[nH]1	Toxoplasma gondii		Uracil phosphoribosyltransferase		inhibition	RH	2000 µM	<5%
COc1ccccc1C(=O)Nc1nnc(NCCCNC2CCCCC2)s1	Human cytomegalovirus		Polymerase		IC50			>25 µM
CC1(C)N=C(N)N=C(N)N1c1ccc(N(CCCl)CCCl)cc1	Toxoplasma gondii		DHFR		IC50	RH		0.33 µM
O=c1cccc[nH]1	Toxoplasma gondii		Uracil phosphoribosyltransferase		IC50	RH		>2000 µM
CC1(C)N=C(N)N=C(N)N1c1ccccc1Cl	Toxoplasma gondii		DHFR		IC50	RH		84.6 µM
CCN(C(=O)OCc1ccccc1)C1CCN(CC[C@](C)(CN(C)S(=O)(=O)c2ccccc2)c2ccccc2)CC1		radiometric	CCR5	CCR5-W86A	IC50			0.21 µM
O=C(O)c1c(O)cncc1O	Toxoplasma gondii		Uracil phosphoribosyltransferase		inhibition	RH	2000 µM	<5%
CC(C)=CCOc1cc(NC(=S)c2ccoc2C)ccc1Cl	HIV	nucleotide incorporation / radiometric	Reverse transcriptase	RT-N137D	fold resistance			0.18
O=Nc1c(O)[nH]c(=O)[nH]c1=O	Toxoplasma gondii		Uracil phosphoribosyltransferase		IC50	RH		>2000 µM
CCCCCCCC/C=C/CCCCCCCC(=O)Nc1nnc(NCCN(C)C)s1	Human cytomegalovirus		Polymerase		IC50			<25 µM
Cc1cn([C@H]2C=C[C@@H](COP(=O)(O)OP(=O)(O)OP(=O)(O)O)O2)c(=O)[nH]c1=O	HIV	nucleotide incorporation / radiometric	Reverse transcriptase	RT-N137D	IC50			1.6 µM
COC(=O)c1cc(=O)[nH]c(=O)[nH]1	Toxoplasma gondii		Uracil phosphoribosyltransferase		inhibition	RH	2000 µM	<5%

ICn: concentration for n% inhibition. Fold resistance has wild type as its base. Percent inhibition refers to the dose given; in toxicity tests it is the harm to the cells. Blank or dashed fields: not listed here.